These are literature values, as cited in US4296032A (priority 1979, dated 1981).

Each structure is given as a SMILES string.

The series deals with β-lactamase. To be noted: known from literature; cited from earlier work.

On to `CC1(C)S[C@@H]2[C@H](Br)C(=O)N2[C@H]1C(=O)O`, for which the β-lactamase inhibitor result is “β-lactamase inhibitor”.
